# Test system: HIV-1 attachment to HeLa CD4 LTR B-gal cells
# Experiment: Inhibition of attachment assay
# Type: cell-based
# Method: The attachment assay was performed with the HeLa CD4 LTR B-gal cells available from the AIDS Research and Reference Reagent Repository. […] HeLa CD4 LTR B-gal cells express cell surface CD4 and contain an LTR B-galactosidase reporter construct. Upon infection either the Tat protein incorporated into the virion or new Tat produced following virus integration and transcription trans-activate the LTR B-gal reporter, leading to expression of the B-galactosidase enzyme. HeLa CD4 LTR B-gal cells are routinely cultured with the required selection antibiotics and scrended for mycoplasma contamination. Twenty-four h prior to initiation of the assay cells were trypsinized, counted and 1×10^4 cells placed in a 0.2 cm well in media without selection antibiotics. Media was removed and compound media placed on the cells and incubated for 15 to 30 min at 37° C. A known titer of virus was then added to the wells and the incubation continued for 1 h. At the end of the incubation the wells were washed 6 times with media and the culture continued for 48 h. At 48 h the wells were washed one time with PBS and B-galactosidase enzyme expression determined by chemiluminescence per manufacturers instructions (Tropix Gal-screen TM, Tropix, Bedford, Mass.). Compound toxicity was monitored on sister plates using MTS dye reduction. (See Tables 14 through 16 and FIGS. 21 and 22).
substance,measurement,setting,value
Zinc Iodiscorbate [Compound Z],RLU (Relative Light Units) MEAN,0.32 μG/Ml,137321.7 RLU
same,RLU (Relative Light Units) MEAN,1 μG/Ml,144365.3 RLU
same,RLU (Relative Light Units) MEAN,3.2 μG/Ml,113431.3 RLU
same,RLU (Relative Light Units) MEAN,10 μG/Ml,95054.0 RLU
same,RLU (Relative Light Units) MEAN,32 μG/Ml,82862.7 RLU
same,RLU (Relative Light Units) MEAN,100 μG/Ml,101665.0 RLU
